# Molecular target: MVIIA (SNX-111) binding site ("Site 1") (Rattus norvegicus, UniProt Q02294)
# The chains behind the UniProt entries cited, without tags or fusion partners.
# UniProt Q02294, whole entry, looked up: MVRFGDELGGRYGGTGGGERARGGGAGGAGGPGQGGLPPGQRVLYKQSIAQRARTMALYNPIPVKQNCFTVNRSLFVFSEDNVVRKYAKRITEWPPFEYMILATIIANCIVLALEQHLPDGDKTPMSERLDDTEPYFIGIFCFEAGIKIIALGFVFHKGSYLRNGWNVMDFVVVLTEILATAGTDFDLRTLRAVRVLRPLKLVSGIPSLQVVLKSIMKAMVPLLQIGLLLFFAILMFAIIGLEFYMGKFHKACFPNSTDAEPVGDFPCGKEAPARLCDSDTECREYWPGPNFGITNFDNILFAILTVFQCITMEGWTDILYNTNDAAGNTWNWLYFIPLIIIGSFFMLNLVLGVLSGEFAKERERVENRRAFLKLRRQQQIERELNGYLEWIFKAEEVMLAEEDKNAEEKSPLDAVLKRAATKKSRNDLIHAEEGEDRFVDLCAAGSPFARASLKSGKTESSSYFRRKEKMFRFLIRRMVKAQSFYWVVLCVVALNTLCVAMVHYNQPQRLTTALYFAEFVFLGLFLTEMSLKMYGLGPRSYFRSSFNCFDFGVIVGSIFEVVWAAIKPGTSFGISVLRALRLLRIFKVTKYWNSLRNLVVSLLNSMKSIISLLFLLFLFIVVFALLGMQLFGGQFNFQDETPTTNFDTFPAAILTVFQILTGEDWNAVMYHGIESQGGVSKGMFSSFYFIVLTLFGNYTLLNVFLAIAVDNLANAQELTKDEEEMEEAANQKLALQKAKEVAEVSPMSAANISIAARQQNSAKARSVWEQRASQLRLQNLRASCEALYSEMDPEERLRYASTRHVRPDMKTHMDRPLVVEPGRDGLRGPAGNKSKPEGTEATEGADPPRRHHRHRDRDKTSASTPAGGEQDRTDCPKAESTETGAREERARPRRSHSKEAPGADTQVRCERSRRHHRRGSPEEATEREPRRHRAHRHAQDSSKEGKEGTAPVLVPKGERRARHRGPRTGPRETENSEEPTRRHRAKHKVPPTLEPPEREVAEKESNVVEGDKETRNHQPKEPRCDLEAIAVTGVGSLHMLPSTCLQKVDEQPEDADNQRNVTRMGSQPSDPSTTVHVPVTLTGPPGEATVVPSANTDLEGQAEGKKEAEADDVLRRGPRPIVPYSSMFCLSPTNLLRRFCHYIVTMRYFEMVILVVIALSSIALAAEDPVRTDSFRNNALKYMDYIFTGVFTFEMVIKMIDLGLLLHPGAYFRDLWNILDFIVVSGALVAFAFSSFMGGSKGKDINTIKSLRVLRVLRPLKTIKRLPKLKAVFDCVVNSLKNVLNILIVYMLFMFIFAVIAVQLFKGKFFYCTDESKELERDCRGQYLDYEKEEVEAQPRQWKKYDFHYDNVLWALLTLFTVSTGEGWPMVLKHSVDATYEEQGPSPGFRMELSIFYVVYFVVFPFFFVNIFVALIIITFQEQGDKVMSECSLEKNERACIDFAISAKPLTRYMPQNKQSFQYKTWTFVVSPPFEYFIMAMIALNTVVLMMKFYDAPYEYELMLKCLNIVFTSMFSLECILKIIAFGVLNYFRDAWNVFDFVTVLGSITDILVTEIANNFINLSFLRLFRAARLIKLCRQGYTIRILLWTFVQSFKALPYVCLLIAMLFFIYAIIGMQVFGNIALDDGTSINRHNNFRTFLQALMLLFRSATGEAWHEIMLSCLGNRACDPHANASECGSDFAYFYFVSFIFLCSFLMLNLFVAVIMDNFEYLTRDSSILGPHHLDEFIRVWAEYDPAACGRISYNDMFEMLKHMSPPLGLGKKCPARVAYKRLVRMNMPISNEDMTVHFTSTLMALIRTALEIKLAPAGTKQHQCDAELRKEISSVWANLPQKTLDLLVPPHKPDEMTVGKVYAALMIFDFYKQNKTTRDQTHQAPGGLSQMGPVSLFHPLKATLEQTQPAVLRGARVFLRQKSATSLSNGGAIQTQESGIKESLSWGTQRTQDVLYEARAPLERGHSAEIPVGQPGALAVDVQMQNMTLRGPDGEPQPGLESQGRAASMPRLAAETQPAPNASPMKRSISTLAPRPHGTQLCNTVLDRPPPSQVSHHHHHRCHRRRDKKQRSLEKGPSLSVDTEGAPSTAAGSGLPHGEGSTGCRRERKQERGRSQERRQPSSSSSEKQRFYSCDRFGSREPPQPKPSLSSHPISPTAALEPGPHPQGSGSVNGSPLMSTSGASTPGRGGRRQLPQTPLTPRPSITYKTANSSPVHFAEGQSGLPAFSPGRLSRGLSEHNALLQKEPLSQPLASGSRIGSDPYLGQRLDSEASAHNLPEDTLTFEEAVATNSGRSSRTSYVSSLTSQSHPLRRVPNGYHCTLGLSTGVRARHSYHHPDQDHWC
# Settings: read-out: IC50 at the SNX-111 binding site
substance,measurement,value
[ala^12-SNX-111 [SNX-273],IC50,8 pM
